Anti-infective test results gathered from many reports (values: NIAID ChemDB through PubChem).

Shared fields: growth or infection tests; organism: Candida albicans; read-out: MIC50

Lines come from different laboratories, so protocols vary.

smiles | setting | strain | result
CC(C)=CCN=C(N)NCCCCCCCCCNCCCCCCCNC(N)=NCC=C(C)C | - | ATCC 60193 | >80 µM
CCCCCCCCCCCCCCCC(=O)NC1CC(O)C(O)NC(=O)C2C(O)C(C)CN2C(=O)C(C(O)CC(N)=O)NC(=O)C(C(O)C(O)c2ccc(O)c(OS(=O)(=O)O)c2)NC(=O)C2CC(O)CN2C(=O)C(C(C)O)NC1=O | - | FP582 | 0.025 µg/mL
O=S(c1ccccc1)c1c(S)c(O)c2ccccc2c1O | - | - | >3 µg/mL
Fc1ccc(C(c2cccc3ccccc23)n2ccnc2)cc1 | - | 23 strains | 8 µg/mL
Clc1ccc(C(Cn2ccnc2)OCc2csc3c(Cl)cccc23)c(Cl)c1 | - | 16 strains | 1 µg/mL
Clc1ccc(C(c2ccc3ccccc3c2)n2ccnc2)s1 | - | 23 strains | 4 µg/mL
O=C1OC(CO)C=C1c1ccc(Cl)c(Cl)c1 | - | ATCC 90028 | 32 µg/mL
COc1ccc(CN2C[C@H](OC[C@@]34C[C@@H]5[C@H](C)CC[C@H]5[C@@]5(C=O)C[C@@H]3CC(C(C)C)[C@@]45C(=O)O)O[C@H](C)C2)cc1 | - | 16 isolates | ≤0.001 µg/mL
Clc1ccccc1C(c1ccccc1)(c1ccccc1)n1ccnc1 | - | 16 strains | 0.5 µg/mL
CO/C=C(\C(=O)OC)c1ccc(Cl)c(Cl)c1 | - | ATCC 90028 | >32 µg/mL
C=C=CCN1C[C@H](OC[C@@]23C[C@@H]4[C@H](C)CC[C@H]4[C@@]4(C=O)C[C@@H]2CC(C(C)C)[C@@]34C(=O)O)O[C@H](C)C1 | - | 16 isolates/fluconazole resistant | 0.03 µg/mL
CCC(C)n1ncn(-c2ccc(N3CCN(c4ccc(OC[C@H]5CO[C@](Cn6cncn6)(c6ccc(Cl)cc6Cl)O5)cc4)CC3)cc2)c1=O | - | 23 strains | 0.06 µg/mL
FC(F)(F)c1ccc(OC(CCn2ccnc2)c2ccccc2)cc1 | - | 20 strains | 64 µg/mL
CCC(C)CC(C)CCCCCCCCC(=O)N[C@H]1C[C@@H](O)[C@H](NCCN)NC(=O)[C@@H]2[C@@H](O)CCN2C(=O)[C@H]([C@H](O)CCN)NC(=O)[C@H]([C@H](O)[C@@H](O)c2ccc(O)cc2)NC(=O)[C@@H]2C[C@@H](O)CN2C(=O)[C@H]([C@@H](C)O)NC1=O | - | 10 strains (fluconazole- itraconazole-susceptible) | 0.5 µg/mL
CCC(C)n1ncn(-c2ccc(N3CCN(c4ccc(OC[C@H]5CO[C@](Cn6cncn6)(c6ccc(Cl)cc6Cl)O5)cc4)CC3)cc2)c1=O | - | 50 isolates | 0.01 µg/mL
NC(N)=NCCCCCCCCCNCCCCCCCN=C(N)N | - | 53T | 40 µM
C=CCSS(=O)CC=C.OC(Cn1cncn1)(Cn1cncn1)c1ccc(F)cc1F | - | ATCC 14053 | 1 µg/mL
Clc1ccc(C(c2ccc3ccccc3c2)n2ccnc2)cc1 | - | 23 strains | 8 µg/mL
O=C1C(Sc2ccccc2)=C(Sc2ccccc2)C(=O)c2ccccc21 | - | - | 2–3 µg/mL
CCCCCCCCCCCCCCCC(=O)NC1CCC(O)NC(=O)C2C(O)C(C)CN2C(=O)C(C(O)CC(N)=O)NC(=O)C(C(O)Cc2ccc(O)c(OS(=O)(=O)O)c2)NC(=O)C2CC(O)CN2C(=O)C(C(C)O)NC1=O | - | - | 0.008 µg/mL
c1ccc(-c2ccc(C(c3cccc4ccccc34)n3ccnc3)cc2)cc1 | - | 23 strains | 8 µg/mL
CN1CCN(c2ccc3nc(-c4ccc5nc(-c6ccc(O)cc6)[nH]c5c4)[nH]c3c2)CC1 | - | RO102 | 32 µM
COC(/C=C/c1ccccc1)=C1/C(=O)C=C(C)C1=O | - | Isolate 1 azole-susceptible | 0.6 µg/mL
OC[C@H]1CO[C@](Cn2ccnc2)(c2ccc(-c3ccccc3)cc2)O1 | - | 44 strains | 32 µg/mL
c1csc(C(c2cccc3ccccc23)n2ccnc2)c1 | - | 23 strains | 8 µg/mL
Clc1ccc(-c2c[nH]cc2C(c2ccccc2)n2ccnc2)cc1Cl | - | 40 strains | 89 µg/mL
C[C@H]1[C@H](O)[C@@H](C)/C=C/C=C/C=C/C=C/C=C/C=C/C=C/[C@H](O[C@@H]2O[C@H](C)[C@@H](O)[C@H](N)[C@@H]2O)C[C@@H]2O[C@](O)(C[C@@H](O)C[C@@H](O)CC[C@H](O)[C@@H](O)C[C@@H](O)CC(=O)O[C@H]1C)C[C@H](O)[C@H]2C(=O)O | - | 52 strains | 1 µg/mL
CC(=O)N1CCN(c2ccc(OC[C@H]3CO[C@](Cn4ccnc4)(c4ccc(Cl)cc4Cl)O3)cc2)CC1 | - | ATCC 14053 | 0.125 µg/mL
CC(=O)OCC1C=C(c2cccc(Cl)c2)C(=O)O1 | - | 9 isolates fluconazole-resistant | 2 µg/mL
C[C@@H](c1ncncc1F)[C@](O)(Cn1cncn1)c1ccc(F)cc1F | 48 h | Isolate M27-T-micro | 0.09 µg/mL
CCS(=O)(=O)C(F)(F)C(O)(Cn1cncn1)c1ccc(F)cc1F | - | 55 strains | 0.063 µg/mL
CC(C)C1C[C@H]2C[C@]3(C=O)[C@@H]4CC[C@@H](C)[C@H]4C[C@@]2(CO[C@H]2CN(C4CC4)C[C@@H](C)O2)[C@]13C(=O)O | - | 16 isolates/fluconazole resistant | 0.03 µg/mL
C[C@H]1[C@H](O)[C@@H](C)/C=C/C=C/C=C/C=C/C=C/C=C/C=C/[C@H](O[C@@H]2O[C@H](C)[C@@H](O)[C@H](N)[C@@H]2O)C[C@@H]2O[C@](O)(C[C@@H](O)C[C@@H](O)CC[C@H](O)[C@@H](O)C[C@@H](O)CC(=O)O[C@H]1C)C[C@H](O)[C@H]2C(=O)O | - | 19 strains | 0.5 µg/mL
Clc1ccc(C(c2cccc3ccccc23)n2ccnc2)cc1 | - | 23 strains | 2 µg/mL
CC(C)=CCN=C(N)NCCCCCCCN1CCCCCCCCN=C(N)NC1=O | - | ATCC 60193 | 40 µM
C[C@H]1[C@H](O)[C@@H](C)/C=C/C=C/C=C/C=C/C=C/C=C/C=C/[C@H](O[C@@H]2O[C@H](C)[C@@H](O)[C@H](N)[C@@H]2O)C[C@@H]2O[C@](O)(C[C@@H](O)C[C@@H](O)CC[C@H](O)[C@@H](O)C[C@@H](O)CC(=O)O[C@H]1C)C[C@H](O)[C@H]2C(=O)O | - | 9 isolates fluconazole-resistant | 0.125 µg/mL
Clc1ccc(C(c2cccc3ccccc23)n2ccnc2)s1 | - | 23 strains | 4 µg/mL
CS(=O)(=O)OCC1COC(Cn2ccnc2)(c2ccc(-c3ccccc3)cc2)O1 | - | 44 strains | 64 µg/mL
C[C@H]1[C@H](O)[C@@H](C)/C=C/C=C/C=C/C=C/C=C/C=C/C=C/[C@H](O[C@@H]2O[C@H](C)[C@@H](O)[C@H](N)[C@@H]2O)C[C@@H]2O[C@](O)(C[C@@H](O)C[C@@H](O)CC[C@H](O)[C@@H](O)C[C@@H](O)CC(=O)O[C@H]1C)C[C@H](O)[C@H]2C(=O)O | - | 40 isolates azole-susceptible | 0.1 µg/mL
Cc1ccc(SC2=C(Sc3ccc(C)cc3)C(=O)c3ccccc3C2=O)cc1 | - | - | >3 µg/mL
CCC(C)CC(C)CCCCCCCCC(=O)N[C@H]1C[C@@H](O)[C@H](NCCN)NC(=O)[C@@H]2[C@@H](O)CCN2C(=O)[C@H]([C@H](O)CCN)NC(=O)[C@H]([C@H](O)[C@@H](O)c2ccc(O)cc2)NC(=O)[C@@H]2C[C@@H](O)CN2C(=O)[C@H]([C@@H](C)O)NC1=O | - | 733 strains | 0.5 µg/mL
Clc1ccc(C(c2c[nH]cc2-c2ccccc2)n2ccnc2)cc1 | - | 40 strains | 8 µg/mL
O[C@](Cn1cncn1)(Cn1cnc(/C=C/c2ccc(OCC(F)(F)C(F)F)cc2)n1)c1ccc(F)cc1F | - | 119 isolates | 0.015 µg/mL
CCCCCCCCCCCCCCCC(=O)NC1CCC(O)NC(=O)C2C(O)C(C)CN2C(=O)C(C(O)CC(N)=O)NC(=O)C(C(O)Cc2ccc(O)c(OS(=O)(=O)O)c2)NC(=O)C2CC(O)CN2C(=O)C(C(C)O)NC1=O | - | FP582 | 0.03 µg/mL
CC(C)(C)C(=O)OCC1C=C(c2ccc(Cl)c(Cl)c2)C(=O)O1 | - | ATCC 90028 | 2 µg/mL
O=C(OCC1COC(Cn2ccnc2)(c2ccc(-c3ccccc3)cc2)O1)c1ccccc1 | - | 44 strains | 16 µg/mL
CCC(C)CC(C)CCCCCCCCC(=O)N[C@H]1C[C@@H](O)[C@H](NCCN)NC(=O)[C@@H]2[C@@H](O)CCN2C(=O)[C@H]([C@H](O)CCN)NC(=O)[C@H]([C@H](O)[C@@H](O)c2ccc(O)cc2)NC(=O)[C@@H]2C[C@@H](O)CN2C(=O)[C@H]([C@@H](C)O)NC1=O | - | 2453 strains | 0.12 µg/mL
C[C@H]1[C@H](O)[C@@H](C)/C=C/C=C/C=C/C=C/C=C/C=C/C=C/[C@H](O[C@@H]2O[C@H](C)[C@@H](O)[C@H](N)[C@@H]2O)C[C@@H]2O[C@](O)(C[C@@H](O)C[C@@H](O)CC[C@H](O)[C@@H](O)C[C@@H](O)CC(=O)O[C@H]1C)C[C@H](O)[C@H]2C(=O)O | - | 52 strains | 1 µg/mL
NC(N)=NCCCCCCCNCCCCCCCCCNC(N)=NCC1CC1 | - | ATCC 60193 | 20 µM
CCCCCOc1ccc(-c2cc(-c3ccc(C(=O)N[C@H]4C[C@@H](O)[C@@H](O)NC(=O)[C@@H]5[C@@H](O)[C@@H](C)CN5C(=O)[C@H]([C@H](O)CC(N)=O)NC(=O)[C@H]([C@H](O)[C@@H](O)c5ccc(O)c(OS(=O)(=O)O)c5)NC(=O)[C@@H]5C[C@@H](O)CN5C(=O)[C@H]([C@@H](C)O)NC4=O)cc3)no2)cc1 | - | Fluconazole-resistant 4 isolates pooled | 0.0156 µg/mL
NC(=NCc1ccccc1)NCCCCCCCN1CCCCCCCCN=C(N)NC1=O | - | 53T | 2.5 µM
O=C1C(Nc2ccc(Br)cc2)=C(S(=O)c2ccc(O)cc2)C(=O)c2ccccc21 | - | - | >3 µg/mL

A number after MIC or MFC names an inhibition level or a share of isolates. Two numbers with a dash give a range or band. An empty or dashed field is not shown.